# Reference: PubChem BioAssay AID720542 (National Center for Advancing Translational Sciences (NCATS), 2013)
# This is a selection; strong and weak results do not stand in their true shares. Active and inactive are the calls of the source. Calls come from the whole dose curve; as a rule, active = well fitted inhibition curve with a large enough effect; inconclusive = small, poorly fitted or top-dose-only effect; inactive = no such curve, though single readings can be large or run the other way.
# Tested on: Plasmodium falciparum AMA1 (3D7) - RON2 peptide interaction
# Experiment: qHTS for Inhibitors of AMA1-RON; Towards Development of Antimalarial Drug Lead: Primary Screen; note: nearly all actives have a fitted effect of over 45% in size;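 for activity change, negative = inhibition: 0% = vehicle wells and -100% = peptide control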
# Details: AlphaScreen AMA1-biotinylated RON2 peptide binding; series mostly up to 58.2 µM; activity change, negative = inhibition: at the top concentration
# Potency is the fitted concentration of half-maximal effect.
Compound,"activity change, negative = inhibition",Potency
O=[As](O)(c1ccccc1)c1ccc(O)cc1,inactive: -7.47%,
O=[N+]([O-])c1ncn(CCn2cnc([N+](=O)[O-])n2)n1,inactive: 2.56%,
CC(=O)NC(SC(=S)N(C)C)C(Cl)(Cl)Cl (stereo unspecified),inactive: 24.6%,
O=[N+]([O-])c1ccc(O)c(/C=N/Nc2ccc([N+](=O)[O-])cc2[N+](=O)[O-])c1,inactive: -6.84%,
O=C(OC1CN2CCC1CC2)c1cccc(Cl)c1 (stereo unspecified),inactive: -6.14%,
Nc1ccc([As](=O)(O)c2ccc([N+](=O)[O-])cc2)cc1,inactive: -10.7%,
C(Cc1nn[nH]n1)Cc1nn[nH]n1,inactive: 0.118%,
CN(C)C1(CNC(=O)c2ccc(Cl)c(S(N)(=O)=O)c2)CCCCC1,inactive: 18.2%,
Nc1ccc(CCCCOc2ccccc2)cc1,inactive: -26.8%,
COc1ccc(N)c([N+](=O)[O-])c1[N+](=O)[O-],inactive: -9.21%,
O=P(Nc1nc2ccccc2s1)(c1ccccc1)c1ccccc1,inactive: 15.8%,
C[C@H]1OP(=O)(Oc2ccccc2)[C@H](O)[C@H](O)[C@H]1N=[N+]=[N-] (stereo partly specified),inactive: -12.8%,
O=P(Nc1nccs1)(c1ccccc1)c1ccccc1,inactive: 3.54%,
CC(C)C(=O)NC(Sc1ccccc1)C(Cl)(Cl)Cl (stereo unspecified),inactive: -17.6%,
c1nnnn1CCn1cnnn1,inactive: 27.6%,
Cc1ccccc1CN(C)C(=O)COC(=O)C(O)(c1ccccc1)c1ccccc1,inactive: 0.221%,
C[C@@H]1C=CCP(=O)(Oc2ccccc2)O1 (stereo partly specified),inactive: 8.03%,
C[C@H]1OP(=O)(Oc2ccccc2)C[C@@H]2O[C@@H]21 (stereo partly specified),inactive: -3.69%,
N#C/C(=C\c1ccc(N(CCBr)CCBr)cc1)C(N)=O,inactive: -8.94%,
CC(=O)c1ccc(N2CC2c2ccncc2)cc1 (stereo unspecified),inactive: 0.089%,
COC(=O)C1(C)COP(=O)(NCc2ccccc2)OC1 (stereo unspecified),inactive: 20.2%,
CC(=O)Nc1ccc([As](=O)(O)O)c(O)c1,inactive: 0.529%,
CC(=O)Nc1ccc(Oc2c([N+](=O)[O-])cc([N+](=O)[O-])cc2[N+](=O)[O-])cc1,inactive: 2.13%,
O=P1(Nc2nc3ccc(Cl)cc3s2)COc2ccccc2O1 (stereo unspecified),inactive: -3.69%,
CCOc1ccc(C2=NCC(CBr)S2)cc1 (stereo unspecified),inactive: 4.28%,

Compound,"activity change, negative = inhibition",Potency
CC(C)(C)C(=O)NC(Sc1ccccc1)C(Cl)(Cl)Cl (stereo unspecified),inactive: 6.18%,
CCc1cc(O)c([N+](=O)[O-])c(C)c1[N+](=O)[O-],inactive: 10.4%,
O=C(OC1CN2CCC1CC2)c1ccccc1 (stereo unspecified),inactive: -9.63%,
CCC(=O)N1C2C3N(C(=O)CC)C1C1N(C(=O)CC)C(C(N1C(=O)CC)N3C(=O)CC)N2C(=O)CC,inactive: 0%,
COC(=O)c1cc2c(s1)N=C(c1ccccc1)N(C)P2(=O)N1CCOCC1 (stereo unspecified),inactive: 15.3%,
Cc1ccc(OP(=O)(Nc2ccccn2)Oc2ccc(C)cc2)cc1,inactive: 3.34%,
CC(=O)NC(SC(=S)N(CC(C)C)CC(C)C)C(Cl)(Cl)Cl (stereo unspecified),inactive: 25.1%,
Cc1ccccc1OP(=O)(Nc1ccccn1)Oc1ccccc1C,inactive: -15%,
CC(NC(=O)COC(=O)C(O)(c1ccccc1)c1ccccc1)c1ccccc1 (stereo unspecified),inactive: 8.28%,
CN(C)C(=O)Oc1noc2ccccc12,inactive: 9.51%,
O=c1c2cc([N+](=O)[O-])ccc2[nH]c2c([N+](=O)[O-])cc([N+](=O)[O-])cc12,inactive: -9.17%,
c1ccc(-c2nn[nH]n2)c(-c2nn[nH]n2)c1,inactive: -8.6%,
Cc1ccc(NP(=O)(Oc2cccc(C)c2)Oc2cccc(C)c2)nc1,inactive: 2.37%,
O=C(NC1CCS(=O)(=O)C1)NP(=S)(Oc1ccccc1)Oc1ccccc1 (stereo unspecified),inactive: -4.31%,
CCNC(=S)/N=C(\N)N[N+](=O)[O-],inactive: 18.7%,
O=P1(N(CCCl)CCCl)OCCC2CCCCN21 (stereo unspecified),inactive: 17.9%,
Nc1cccc2ccc([As](=O)(O)O)cc12,inactive: -7.4%,
CCN(N=Nc1nonc1N)c1nonc1N,inactive: 16%,
CN(C)P(=O)(N(C)C)n1c(Nc2ccccc2)nnc1-c1ccccc1,inactive: -10.3%,
O=P(Nc1nc2ccc(Cl)cc2s1)(c1ccccc1)c1ccccc1,inactive: 40.6%,
O=C(O)c1ccccc1[As](=O)(O)O,inactive: 8.39%,
CC(=O)Nc1ccc([As](=O)(O)O)cc1,inactive: 15.2%,
CCCC1OP(N)(=O)OCC1CC (stereo unspecified),inactive: 2.28%,
CCOP(=O)(Nc1ccccc1)OCC,inactive: 0%,
Cc1cc(SC(NC(=O)c2ccc(F)cc2)C(Cl)(Cl)Cl)ncn1 (stereo unspecified),inactive: 0%,

Compound,"activity change, negative = inhibition",Potency
CN(C(=O)Cc1ccc(Cl)c(Cl)c1)[C@H]1CCCC[C@@H]1N1CCCC1,inactive: 0.245%,
Cc1ccc(NP(=O)(Oc2ccccc2F)Oc2ccccc2F)nc1,inactive: -7.7%,
Oc1ccccc1CNc1ccccn1,inactive: 1.83%,
O=C(NC(Sc1ccncn1)C(Cl)(Cl)Cl)c1ccccc1 (stereo unspecified),inactive: 37%,
CC(C)CC(=O)NC(Sc1ccc(Cl)cc1)C(Cl)(Cl)Cl (stereo unspecified),inactive: 6.24%,
Nc1cc(N)c2nonc2c1[N+](=O)[O-],inactive: -8.65%,
O=[N+]([O-])C1C(O)C(O)C([N+](=O)[O-])C(O)C1O (stereo unspecified),inactive: -19.1%,
CN(C(=O)Cc1ccc(Cl)c(Cl)c1)[C@H]1CCCC[C@H]1N1CCCC1,inactive: 5.53%,
Cc1ccc(N/C(=N/P(=O)(N2CCOCC2)N2CCOCC2)N2CCOCC2)cc1,inactive: 28.3%,
NC(=O)c1cc([N+](=O)[O-])cc([N+](=O)[O-])c1N,inactive: -4.16%,
Clc1ccc(Cl)c(NC2=NCC(CBr)S2)c1 (stereo unspecified),inactive: 7.48%,
CN1CCCC(OC(=O)C(c2ccccc2)c2ccccc2)C1 (stereo unspecified),inactive: -17.3%,
COc1ccccc1OP(=O)(Nc1ccc(C)cn1)Oc1ccccc1OC,inactive: -12.2%,
Cc1ccc(OP(=O)(Nc2nccs2)Oc2ccc(C)cc2)cc1,inactive: 0.538%,
CCN(/C(=N/P(=O)(N1CCOCC1)N1CCOCC1)N1CCOCC1)c1ccc(OC)cc1,inactive: 2%,
Nc1ccc([As](=O)(O)c2ccc(N)cc2)cc1,inactive: -5.17%,
c1cc(-c2nn[nH]n2)ccc1-c1nn[nH]n1,inactive: -11.3%,
CC1CCN(C(=O)Oc2c(Cl)cc(Cl)c3cccnc23)CC1,inactive: 3.13%,
CC(C)=N/N=C(\N)N[N+](=O)[O-],inactive: 9.51%,
CC(C)c1nc(Nc2ccccc2)n(P(=O)(N(C)C)N(C)C)n1,inactive: -0.225%,
CN(C)C(=O)OCCc1n(C)cc[n+]1C,inactive: -0.144%,
COc1ccc(C2=NCC(CBr)S2)cc1 (stereo unspecified),inactive: -0.0301%,
Cc1ccc(NP(=O)(Oc2ccccc2)Oc2ccccc2)nc1,inactive: -7.39%,
CCc1nc2c(n1)c1c(non1O)c1c2no[n+]1[O-],inactive: -4.4%,
CC(=O)N1C2C3N(C(C)=O)C1C1N(C(C)=O)C(C(N1C(C)=O)N3C(C)=O)N2C(C)=O,inactive: -1.32%,

Compound,"activity change, negative = inhibition",Potency
O=[N+]([O-])c1cccc2n[nH]nc12,inactive: -16.2%,
O=[N+]([O-])c1ncn(CCn2ncnc2[N+](=O)[O-])n1,inactive: -1.05%,
CC(C)(C)C(=O)NC(Sc1ccncn1)C(Cl)(Cl)Cl (stereo unspecified),inactive: 37.3%,
O=C(O)CNc1ccc([As](=O)(O)O)cc1,inactive: -4.46%,
O=[N+]([O-])c1cccc(NC2=NCC(CBr)S2)c1 (stereo unspecified),inactive: -2.92%,
COC(=O)C1(C)COP(=O)(Nc2ccccc2)OC1 (stereo unspecified),inactive: 21.8%,
O=P1(N(CCCl)CCCl)OCCCS1 (stereo unspecified),inactive: 8.74%,
O=C(Nc1cc([As](=O)(O)O)ccc1O)c1ccccc1,inactive: 39%,
CCOC(=O)Nc1cccc([As](=O)(O)O)c1,inactive: 6.28%,
Cc1cc(SC(NC=O)C(Cl)(Cl)Cl)ncn1 (stereo unspecified),inactive: 9.2%,
O=P(Nc1ccccn1)(c1cccc2ccccc12)c1cccc2ccccc12,inactive: -20%,
O=[N+]([O-])c1ccc(Nc2ccc(Oc3ccc([N+](=O)[O-])cc3[N+](=O)[O-])cc2)c([N+](=O)[O-])c1,inactive: -8.29%,
O=C(O)C(O)c1ccc(N(CCCl)CCCl)cc1 (stereo unspecified),inactive: -10%,
CCOC(=O)Nc1ccc([As](=O)(O)O)c(O)c1,inactive: 9.66%,
CC1CCNP(=O)(N(CCCl)CCCl)O1 (stereo unspecified),inactive: 77.7%,
COP(=O)(OC)N1CC1c1ccccc1 (stereo unspecified),inactive: -6.73%,
CCCCOc1ccc(C(=O)NCC2(N3CCCCC3)CCCCC2)cc1OC,inactive: -0.763%,
Cc1cc(SC(NC(=O)c2ccccc2)C(Cl)(Cl)Cl)nc(C(C)C)n1 (stereo unspecified),inactive: -0.772%,
O=C(OC1CN2CCC1CC2)c1cccc([N+](=O)[O-])c1 (stereo unspecified),inactive: 3.63%,
CSc1ccc(Nc2c([N+](=O)[O-])cc([N+](=O)[O-])cc2[N+](=O)[O-])cc1,,active: 11.2 µM
CCOC(=O)c1ccc(NC(=O)C(C)(CCl)SC)cc1 (stereo unspecified),inactive: -19.2%,
CCC(C)N(CC(C)C)C(=S)SC(NC(C)=O)C(Cl)(Cl)Cl (stereo unspecified),inactive: 18.9%,
COP1(=S)c2c(C)nn(CCC#N)c2N=C(c2ccc(F)cc2)N1C (stereo unspecified),inactive: -0.689%,
COC(=O)C1(C)COP(=O)(N2CCCC2)OC1 (stereo unspecified),inactive: 15.2%,
O=C(O)C(=O)c1ccc(N(CCCl)CCCl)cc1,inactive: -4.11%,

Compound,"activity change, negative = inhibition",Potency
O=C(COc1ccccc1)OC1CN2CCC1CC2 (stereo unspecified),inactive: 17.8%,
O=C(Nc1ccncc1[N+](=O)[O-])c1ccc([N+](=O)[O-])cc1[N+](=O)[O-],inactive: -3.85%,
O=[N+]([O-])c1cc(Oc2ccc([N+](=O)[O-])cc2C(F)(F)F)cc([N+](=O)[O-])c1,inactive: -0.476%,
COc1ccc(N/C(=N/P(=O)(N2CCOCC2)N2CCOCC2)N2CCOCC2)cc1,inactive: 1.67%,
Cc1c2c(nc3ccccc13)SC(C(Cl)Cl)C2 (stereo unspecified),inactive: 13.2%,
Cc1cc(=O)[nH]c(N[N+](=O)[O-])n1,inactive: -6.61%,
O=P1(N(CCCl)CCCl)OCCCN1CCCl (stereo unspecified),inactive: 5.07%,
O=P1(N(CCCl)CCCl)Nc2ccccc2N1,inactive: 10.7%,
COc1ccc2nc(NP(=O)(c3ccccc3)c3ccccc3)sc2c1,inactive: -2.84%,
COc1cc(I)ccc1[As](=O)(O)O,inactive: -14.6%,
ClCCSc1nnc(-c2cccnc2)o1,inactive: 13.9%,
CC(C)c1ccc(OP(=O)(Nc2ccccn2)Oc2ccccc2F)cc1 (stereo unspecified),inactive: -4.17%,
COC(=O)C1(C)COP(=O)(N2CCCCCC2)OC1 (stereo unspecified),inactive: 8.25%,
O=C(OC1CN2CCC1CC2)c1cccc2[nH]cnc12 (stereo unspecified),inactive: 3.3%,
CCN(CC)C(=S)SC(NC=O)C(Cl)(Cl)Cl (stereo unspecified),inactive: 9.36%,
CC(C)NC(=O)NP(=O)(Oc1ccccc1)Oc1ccccc1,inactive: 0.299%,
O=[N+]([O-])c1cc([N+](=O)[O-])c(-c2ccn[nH]2)s1,inactive: 8.94%,
O=[As](O)(c1ccc(O)cc1)c1ccccc1O,inactive: 4.33%,
C[As](=O)(O)c1cccc(C(=O)O)c1,inactive: -0.966%,
COc1cc(C(=O)NCC2(N3CCOCC3)CCCCC2)ccc1OCC(C)C,inactive: 10.5%,
O=[N+]([O-])c1ccc(-c2cc([N+](=O)[O-])c(O)c([N+](=O)[O-])c2)cc1,inactive: -22.6%,
